Reference: PubChem BioAssay AID504761 (Drosophila RNAi Screening Center, 2011)

Assay: 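Fly genes whose silencing reduces dengue virus type 2 infection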 (primary screen)
Cell system: D.Mel-2 cells from Drosophila
Knock-down reagent: long dsRNA against Drosophila genes
Conditions: infection with dengue virus type 2; dose and infection time not stated
Measurement: 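Per well on two replicate plates, imaging gave the percent of cells positive for viral envelope protein, ranked by infection, and a nuclear count of cells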
Scale: infection score: higher = more virus-infected cells; cell count: higher = more cells in the well
Call rule: 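Very low infection ranking in both replicate wells (chance probability at most 0.065), then a retest showing infection dropped 1.5-fold or more at p below 0.05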
Meaning of the calls: active = confirmed: knock-down lowers infection; inactive = not picked or not confirmed
The deposit covers about 22,000 reagents; this is an unselected part of those that have a named target and a result. Over the whole deposit, 116 (0.52%) are marked active. 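Calls depend on retest data that are not deposited; infection was ranked per plate without normalising between plates; the unit of the infection score is not given.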 Raw values vary from plate to plate and are shown uncorrected. A plus sign joins genes that one reagent is predicted to hit. Not stated in the record: the amount of reagent, the time to read-out.

target gene	dsRNA	infection score, replicate 1	infection score, replicate 2	cell count, replicate 1	cell count, replicate 2	Outcome
cic (GeneID 53560)	DRSC16918	3.29	1	6436	5993	inactive
cic (GeneID 53560)	DRSC21243	2.06	2.19	5679	5623	inactive
cic (GeneID 53560)	DRSC23217	0.8	8.12	7375	6908	inactive
cic (GeneID 53560)	DRSC25516	3.19	8.26	5423	5509	inactive
cic (GeneID 53560)	DRSC25800	1.63	3.69	6004	6665	inactive
cic (GeneID 53560)	DRSC30090	9.77	14.4	6080	5061	inactive
CG17681 (GeneID 35086)	DRSC02632	20.2	4.48	5667	6501	inactive
CG33255 (retired record) + hpRNA:CR32205 + hpRNA:CR32207	DRSC09617	0.03	0.11	6507	6552	active
AQP (GeneID 36456)	DRSC06122	7.62	4.87	6680	6507	inactive
Liprin-gamma (GeneID 37552)	DRSC04093	7.72	3.16	6259	6102	inactive
CG7966 (GeneID 41610)	DRSC16356	23.1	30.4	5082	5263	inactive
Bap170 (GeneID 35560)	DRSC04964	15.5	34.3	6624	6133	inactive
Bap170 (GeneID 35560)	DRSC21826	20.2	8.11	6535	7049	inactive
Bap170 (GeneID 35560)	DRSC27559	36.9	32.4	6010	6157	inactive
CG5793 (GeneID 42505)	DRSC15874	19.3	9.29	2565	6414	inactive
CG5793 (GeneID 42505)	DRSC26692	6.36	2.92	6662	6064	inactive
CG10909 (GeneID 41581)	DRSC14282	2.01	5.74	6353	6759	inactive
CG7741 (GeneID 36208)	DRSC07035		8.86	477	1276	inactive
CG8584 (GeneID 35856)	DRSC07217	10.5	9.87	6543	3747	inactive
CG33630 (GeneID 3772504)	DRSC14546	3.3	6.03	6456	6645	inactive
CG14720 (GeneID 41415)	DRSC14942	4.84	9.45	6423	6475	inactive
pAbp (GeneID 37070)	DRSC07659	32.5	29.7	1742	1412	inactive
Rpt1 (GeneID 35701)	DRSC07542	8.89	3.06	967	555	inactive
nesd (GeneID 35298)	DRSC02099	3.78	3.42	6560	6322	inactive
nesd (GeneID 35298)	DRSC27779	4.77	6.38	6539	6563	inactive
zld (GeneID 32994)	DRSC23098	1.33	2.25	6450	6749	inactive
zld (GeneID 32994)	DRSC25802	1.9	5.22	6542	5898	inactive

Part of the list above, limited to “infection score, replicate 1”.
cic (GeneID 53560) [DRSC30090] = 9.77
CG17681 (GeneID 35086) [DRSC02632] = 20.2
CG33255 (retired record) + hpRNA:CR32205 + hpRNA:CR32207 [DRSC09617] = 0.03
AQP (GeneID 36456) [DRSC06122] = 7.62
Liprin-gamma (GeneID 37552) [DRSC04093] = 7.72
CG7966 (GeneID 41610) [DRSC16356] = 23.1
Bap170 (GeneID 35560) [DRSC04964] = 15.5
Bap170 (GeneID 35560) [DRSC21826] = 20.2
Bap170 (GeneID 35560) [DRSC27559] = 36.9

Further entries follow.
target gene	dsRNA	infection score, replicate 1	infection score, replicate 2	cell count, replicate 1	cell count, replicate 2	Outcome
Jon65Aiii (GeneID 38683)	DRSC10649	5.62	5.84	6423	6656	inactive
Jon65Aiii (GeneID 38683)	DRSC25428	3.27	5.65	5848	5701	inactive
CG11095 (GeneID 32348)	DRSC19375	16.2	10.6	6765	6497	inactive
CG11095 (GeneID 32348)	DRSC26123	10.3	2.89	5879	5990	inactive
Hmgcl (GeneID 33978)	DRSC02051	2.49	12.2	1203	3078	inactive
NimB2 (GeneID 260645)	DRSC22645	4.45	2.05	6783	6747	inactive
slp2 (GeneID 33608)	DRSC00836	3.86	2.22	6355	6982	inactive
slp2 (GeneID 33608)	DRSC26622	5.94	5.08	6588	5628	inactive
CG11327 (GeneID 33940)	DRSC02146	2.49	2.01	6394	6428	inactive
CG31673 (GeneID 35348)	DRSC03207	3.38	28.9	5735	5407	inactive
CG6329 (GeneID 36529)	DRSC06976	15.7	7.08	5850	6062	inactive
CG11134 (GeneID 32334)	DRSC19384	18	1.7	6786	6102	inactive
mrn (GeneID 39688)	DRSC10913	2.24	25.6	758	4423	inactive
CG9166 (GeneID 38161)	DRSC07842	3.81	2.1	5929	5774	inactive
ana2 (GeneID 35878)	DRSC05952	20.7	11.7	6331	6891	inactive
ana2 (GeneID 35878)	DRSC26549	3.25	2.98	6762	6890	inactive
Atg18a (GeneID 38913)	DRSC10943	4.65	4.56	6522	6512	inactive
CG11342 (GeneID 38538)	DRSC08175	1.46	1.28	6357	6239	inactive
CG11342 (GeneID 38538)	DRSC26281	7.36	6.83	5459	5474	inactive
dind (GeneID 42243)	DRSC16294	2.66	3.45	6325	5978	inactive
dind (GeneID 42243)	DRSC27615	5.59	9.35	6624	6996	inactive
Rab32 (GeneID 35940)	DRSC05146	3.11	3.61	5888	5849	inactive
Rab32 (GeneID 35940)	DRSC07522	31.5	8.95	4988	6513	inactive
Rab32 (GeneID 35940)	DRSC28156	27.4	15.9	5868	6586	inactive
Cdc14 (GeneID 34067)	DRSC03013	2.96	3.09	6410	6820	inactive
Cdc14 (GeneID 34067)	DRSC26430	4.67	4.91	5310	5885	inactive
TH1 (GeneID 32607)	DRSC20289	13.7	2.53	5986	6294	inactive
kto (GeneID 44830)	DRSC10983	3.9	11.5	6721	6071	inactive
Ctr1B + Poxm	DRSC16245	13.9	6.38	6970	1349	inactive
CG5068 (GeneID 39032)	DRSC10476	18.1	16.5	5692	5510	inactive
CG30002 (GeneID 246384)	DRSC05182	4.7	7.84	6112	6221	inactive
CG30002 (GeneID 246384)	DRSC24738	4.17	7.58	6900	6862	inactive
tapas (GeneID 37304)	DRSC05950	5.43	6.1	6149	6095	inactive
CG1146 (GeneID 38313)	DRSC08189	9.83	11.2	6490	6430	inactive
CG1146 (GeneID 38313)	DRSC25486	2.33	2.28	6263	6172	inactive
alpha-Man-IIb (GeneID 41913)	DRSC16898	16.6	16.6	5623	5842	inactive
alpha-Man-IIb (GeneID 41913)	DRSC24186	2.41	6.33	6152	5606	inactive
CG14696 (GeneID 41317)	DRSC14919	3.02	4.74	6334	6351	inactive
Ak6 (GeneID 36379)	DRSC07274	15.2	25.7	6107	6213	inactive
CG31323 (GeneID 318682)	DRSC14901	13.1	1.89	5218	6766	inactive
Ptpa (GeneID 33555)	DRSC00776	4.5	2.61	5884	7081	inactive
Ptpa (GeneID 33555)	DRSC28747	8.81		1827	385	inactive
laf (GeneID 40606)	DRSC12246	6.61	3.2	6292	6943	inactive
HtrA2 (GeneID 41756)	DRSC16425	10.1	3.91	5181	4785	inactive
HtrA2 (GeneID 41756)	DRSC28553	8.29	20.7	2207	5649	inactive
CG9512 (GeneID 32419)	DRSC20189	6.24	6.28	6603	6133	inactive
CG8526 (GeneID 41208)	DRSC16438	8.06	21.8	6450	6046	inactive
CG8526 (GeneID 41208)	DRSC26422	4.57	1.68	6458	6241	inactive
